Measured values from several laboratories, pooled; numbers as filed in NIAID ChemDB.

Common to all: growth or infection tests; agent: HIV-1

Neighbouring rows are from separate reports.

smiles,method,strain or isolate,setting,mutations,cells,read-out,result
Cc1cc(C#N)cc(C)c1Oc1nc(NC2CCN(Cc3cccc(C(N)=O)c3)CC2)nc2sccc12,MTT,RES056,-,-,MT-4,EC50,4.69 µM
O=c1[nH]cnc2c1ncn2[C@H]1CC[C@@H](CO)O1,p24,HXB2,-,-,PBMC,EC90,7.5 µM
CCCCN1C(=O)[C@@H]([C@H](O)C2CCCCC2)NC(=O)C12CCN(Cc1ccc(Oc3ccc(C(=O)O)cc3)cc1)CC2,p24,JR-FL R5,-,-,PBMC,EC50,0.0001 µM
Cc1cc([N+](=O)[O-])c(C)c2c1[nH]c1cc(Cl)ccc12,luminescence,NL4-3,-,-,TZM-bl,EC50,1.4 µM
CC(C)(C)NC(=O)[C@@H]1C[C@@H]2CCCC[C@@H]2CN1C[C@@H](O)[C@H](Cc1ccccc1)NC(=O)[C@H](CC(N)=O)NC(=O)c1ccc2ccccc2n1,p24,BAL R5,-,-,PBMC,EC50,0.011 µM
Cc1cc(N)c(C)c2c1[nH]c1cc(Cl)ccc12,luminescence,BaL,-,-,TZM-bl,EC50,9.5 µM
Cc1cn([C@H]2C[C@H](N=[N+]=[N-])[C@@H](CO)O2)c(=O)[nH]c1=O,plaque count / syncytia,LAV,-,-,U1(HIV-1 (LAV)) + U1,EC50,>1 µM
COc1cccc(C=Nc2nsc3ccccc23)c1O,cytopathic effect / MTT,IIIB,-,-,MT-4,EC50,>6 µM
O=c1[nH]c(=O)n([C@H]2C[C@H](O)[C@@H](CO)O2)cc1C(OCC(F)(F)F)OCC(F)(F)F,p24,-,-,-,CEM,EC50,>100 µg/mL
COc1ccc(C=Nc2nsc3ccccc23)cc1,cytopathic effect / MTT,IIIB,-,-,MT-4,EC50,>7 µM
CC#CCN1C(=O)[C@H]([C@@H](O)C2CCCCC2)NC(=O)C12CCN(Cc1c(C)nn(-c3ccccc3)c1C)CC2,p24,JR-FL R5,-,-,PBMC,EC50,0.013 µM
O=c1[nH]c(-c2ccc3[nH]ncc3c2)nc2ccccc12,p24,-,-,-,OM-10.1,EC50,≥19.1 µM
CC(C)(C)NC(=O)[C@@H]1C[C@@H]2CCCC[C@@H]2CN1CC(O)CNC(=O)[C@@H]1N[C@@H]([C@H](NC(=O)Cc2ccccc2)C(=O)NCCNC(=O)OC(C)(C)C)SC1(C)C,cytopathic effect / MTT,RF,-,-,MT-4,EC50,0.052 µM
CCOC(=O)C1CN(Cc2ccc(S(N)(=O)=O)cc2)CCC1Nc1nc(Oc2c(C)cc(C#N)cc2C)c2sccc2n1,MTT,IIIB,-,NNRTI-resistant (RT K103N),MT-4,EC50,0.239 µM
O=[N+]([O-])c1ccc(/C=N/c2nccs2)cc1,cytopathic effect / MTT,IIIB,-,-,MT-4,EC50,>63 µM
Cc1cn([C@H]2C=C[C@@H](COP3(=O)Oc4ccccc4C(CCl)O3)O2)c(=O)[nH]c1=O,-,-,-,-,CEM,EC50,0.2 µM
Cc1cn([C@H]2C[C@H](N=[N+]=[N-])[C@@H](CO)O2)c(=O)[nH]c1=O,p24 / ELISA,IIIB,-,-,U-937,EC50,0.0037 µg/mL
Cc1cc(C#N)cc(C)c1Oc1nc(NC2CCC(NCc3ccc(Br)cc3)CC2)nc2ccsc12,MTT,IIIB,-,NNRTI-resistant (RT E138K),MT-4,EC50,0.946 µM
Cc1cc(C)c(-n2nnnc2SCC(=O)Nc2ccc([N+](=O)[O-])cc2C)c(C)c1,p24,-,10% FBS,-,MT-4,EC95,1.25 µM
Cc1cn([C@H]2C[C@H](N=[N+]=[N-])[C@@H](CO)O2)c(=O)[nH]c1=O,MTT,RES056,-,-,MT-4,EC50,0.0111 µM
CN(C)c1ccc(CNC(=O)[C@@H](NC(=O)Cc2ccccc2)[C@@H]2N[C@@H](C(=O)NC[C@@H](O)CN3C[C@H]4CCCC[C@H]4C[C@H]3C(=O)NC(C)(C)C)C(C)(C)S2)cc1,cytopathic effect / MTT,RF,-,-,MT-4,EC50,0.52 µM
O=c1[nH]cnc2c1ncn2[C@H]1CC[C@@H](CO)O1,plaque count,HXB2,-,RT-M41L T215Y,HT4 + HT4 LacZ-1,EC50,1.6 µM
Nc1nc(NC2CC2)c2ncn([C@H]3C=C[C@@H](CO)C3)c2n1,cytopathic effect / MTT,IIIB,-,-,MT-4,EC50,2.9 µM
Nc1ccc(-c2nc3cc(Cl)ccc3c(=O)[nH]2)cc1,p24,-,-,-,OM-10.1,EC50,4 µM
Cc1cc(C#N)cc(C)c1Oc1nc(Nc2ccc(C#N)cc2)nc(N)c1Br,MTT,IIIB,-,NNRTI-resistant (RT Y181C),MT-4,EC50,0.0157 µM
Cc1cc(C)c(-n2nnnc2SCC(=O)Nc2ccc(S(N)(=O)=O)cc2Cl)c(C)c1,p24,-,10% FBS,-,MT-4,EC50,<0.016 µM
O=C1N(Cc2ccc(CO)cc2)[C@H](Cc2ccccc2)[C@H](O)[C@@H](O)[C@@H](Cc2ccccc2)N1Cc1ccc(CO)cc1,p24,HXB2,-,-,PBMC,EC50,<0.018 µM
Cc1cc(C)c(-n2nnnc2SCC(=O)Nc2ccccc2Br)c(C)c1,p24,-,10% FBS,-,MT-4,EC50,<0.1 µM
COC(=O)[C@@H](NC(=O)Cc1ccccc1)[C@@H]1N[C@@H](C(=O)NC[C@@H](O)CN2C[C@H]3CCCC[C@H]3C[C@H]2C(=O)NC(C)(C)C)C(C)(C)S1,cytopathic effect / MTT,RF,-,-,MT-4,EC50,3.9 µM
CN(CCO)c1ccc(-c2nc3ccccc3c(=O)[nH]2)cc1,p24,-,-,-,OM-10.1,EC50,14 µM
Nc1ncnc2c1ncn2[C@@H]1CC[C@H](CO)O1,-,-,-,-,PBMC,EC50,>100 µM
O=c1[nH]c(=O)n([C@H]2C[C@H](O)[C@@H](CO)O2)cc1COCC(F)(F)F,p24,-,-,-,CEM,EC50,>100 µg/mL
CCCCC1OP(=O)(OC[C@@H]2C=C[C@H](n3cc(C)c(=O)[nH]c3=O)O2)Oc2cccc(Cl)c21,-,-,-,-,CEM,EC50,0.2 µM
Cc1cn([C@H]2C[C@H](N=[N+]=[N-])[C@@H](CO)O2)c(=O)[nH]c1=O,p24,IIIB,-,-,H9,EC50,<0.08 µg/mL
C(=N\c1nc2ccccc2s1)/c1ccccc1,cytopathic effect / MTT,IIIB,-,-,MT-4,EC50,>100 µM
CCCCCCCCCCCCCCCCCC(=O)NCC(CO)OCC,plaque count,IIIB,-,-,CEM + CEM-SS,EC50,>100 µM
CC(C)CN(C[C@@H](O)[C@H](Cc1ccccc1)NC(=O)[C@H](CC(N)=O)NC(=O)c1ccc2ccccc2n1)C(=O)NC(C)(C)C,p24,NL4-3,-,PR-L10R M46I L63P V82T I84V,MT-4,EC95,1.5 µM
Cc1cn([C@H]2C=C[C@@H](CO)O2)c(=O)[nH]c1=O,p24,NL4-3,-,-,PBMC,EC50,0.009 µM
Cc1cc(C)c(-n2nnnc2SCC(=O)Nc2ccc(C(=O)NCCCN(C)C)cc2Cl)c(C)c1,p24,-,10% FBS,-,MT-4,EC95,0.062 µM
O=[N+]([O-])c1cccc(/C=N/c2nc3ccccc3s2)c1,cytopathic effect / MTT,IIIB,-,-,MT-4,EC50,>60 µM
CC(C)(C)NC(=O)[C@@H]1C[C@@H]2CCCC[C@@H]2CN1C[C@@H](O)[C@H](Cc1ccccc1)NC(=O)[C@H](CC(N)=O)NC(=O)c1ccc2ccccc2n1,p24,NL4-3,-,PR-L10R M46I V82T,MT-4,EC95,0.025 µM
Cc1cn([C@H]2C=C[C@@H](COP3(=O)Oc4cccc(Cl)c4C(C)O3)O2)c(=O)[nH]c1=O,-,-,-,-,CEM,EC50,0.2 µM
CC(C)(C)NC(=O)[C@@H]1C[C@@H]2CCCC[C@@H]2CN1C[C@H](O)CNC(=O)[C@@H]1N[C@@H]([C@H](NC(=O)Cc2ccccc2)C(N)=O)SC1(C)C,cytopathic effect / MTT,RF,-,-,MT-4,EC50,0.59 µM
Cc1ccc2snc(N=Cc3ccccc3Cl)c2c1,cytopathic effect / MTT,IIIB,-,-,MT-4,EC50,>8 µM
O=c1[nH]cnc2c1ncn2[C@H]1CC[C@@H](CO)O1,cytopathic effect / MTT,IIIB,-,-,MT-4,EC50,0.96 µM
COc1ccc(/C=N/c2nccs2)cc1,cytopathic effect / MTT,IIIB,-,-,MT-4,EC50,>100 µM
Cc1cn([C@H]2C=C[C@@H](CO)O2)c(=O)[nH]c1=O,-,-,-,-,CEM,EC50,0.42 µM
O=C(CSc1nnnn1-c1c(Cl)cccc1Cl)Nc1ccccc1[N+](=O)[O-],p24,-,10% FBS,-,MT-4,EC50,<0.015 µM

A second listing of 4 rows from above:

smiles,method,strain or isolate,setting,mutations,cells,read-out,result
Nc1nc(NC2CC2)c2ncn([C@H]3C=C[C@@H](CO)C3)c2n1,cytopathic effect / MTT,IIIB,-,-,MT-4,EC50,2.9 µM
CCCCCCCCCCCCCCCCCC(=O)NCC(CO)OCC,plaque count,IIIB,-,-,CEM + CEM-SS,EC50,>100 µM
Cc1cn([C@H]2C[C@H](N=[N+]=[N-])[C@@H](CO)O2)c(=O)[nH]c1=O,p24,IIIB,-,-,H9,EC50,<0.08 µg/mL
CCCCN1C(=O)[C@@H]([C@H](O)C2CCCCC2)NC(=O)C12CCN(Cc1ccc(Oc3ccc(C(=O)O)cc3)cc1)CC2,p24,JR-FL R5,-,-,PBMC,EC50,0.0001 µM

An empty or dashed field is not shown. ECn is the concentration giving n% inhibition of infection, replication or growth.